The results in this text go back to US8835617B2, “Polynucleotides encoding a human TRIM-Cyp fusion polypeptide, compositions thereof, and methods of using same” (priority 2008, dated 2014).

This data set deals with HIV-1. The settings on record: of CD45^+GFP^+ cells. An excerpt: HIV-1 infection spreads from cell to cell at high titer in complex lymphoid tissues with a specific hierarchy of T cell destruction and distinct kinetics in vivo (Douek et al., 2003). […] This mouse model takes advantage of the lack of functional B, T, and NK cells in Rag2^−/−γc^−/− mice and allows for improved engraftment of xenografts as well de novo intrathymic generation of human T cells (Baenziger et al., 2008; Mazurier et al., 1999). Briefly, CD34^+ hematopoietic stem and progenitor cells are enriched from cord blood of healthy donors by MACS and transplanted intrahepatically into irradiated, newborn Rag2^−/−γc^−/− mice (FIG. 63A). 2-4 months post-transplant, reconstitution of peripheral blood is assessed by flow cytometry, and mice with more that 5% hCD45^+ cells in peripheral blood are infected intraperitoneally (i.p.) with HIV-1 (FIG. 63A).
An aliquot of cells was maintained in culture with the subsequent addition of SCF, TPO, and Flt3L, and assessed for GFP-expression 72 hours post-transduction.
huRag2^−/−γc^−/− mice were generated as previously described^1. Briefly, fresh human cord blood was obtained with parent written informed consent from healthy full-term newborns (Department of Gynecology and Obstetrics, Ospedale San Giovanni, Bellinzona). […] Traggiai, E., et al. Development of a human adaptive immune system in cord blood cell-transplanted mice. […]

For the substance “hT5Cyp: human TRIM5α fused at serine 322 to human cyclophilin A, SEQ ID NO:12”, the “Pre-infection GFP^+ CD3” value is on record as 0%.
